In PMC5754140 (2017) one finds Kd data, which are given here for two molecules.

This assay has as its target PRV gB ectodomain, soluble (residues A59 to N752, strain HN1201) (Pseudorabies virus (strain HN1201)). The assay is described as follows: BLI.

Numbering of substitutions follows the chain as printed.

B1: 1H1 Fab (wild type) (Fab, V domains shown)
VH: QVKLQESGAELVKPGASAKAACEASGYTFTSYWIHWVKQRPGQGLDWIGEINTSSGRTNYNERFKNKATLTVDKTSSTAYIQLSSLTSEDSAVYYCAREGFGNQSLDYWGQGTSLTVSS
VL: DIILTQSPAIMSASLGERVTLTCTASSSVSSSYLHWYQQKPGSSPKLWIYSTYNLAGAVPPRFSGSGSGTSYSLTISSMEAEDAATYYCQQYHRSPWTFGGGTKLEIK
modifications: N-linked glycan at N103 of the HCDR3 loop
As to B1, the affinity, expressed as Kd, was 0.0033 µM.

B2: 1H1_NL Fab (N103 in HCDR3 replaced with alanine) (antibody, V domains shown)
VH: B1 VH with N103A
VL: B1 VL
B2: the Kd (usually a measure of binding affinity in units of concentration) turned out to be 3.1 µM.
